Experimental data reported in publication PMC12391934, “Palladium-Catalyzed C–H Arylation of Quinoidal Scaffolds Through Homogeneous and Heterogeneous Pathways: Advancing Toward Trypanocidal Prototypes” (ACS Omega, 2025).

Tests used:
[1] = tested on: trypomastigote forms of Trypanosoma cruzi (Y strain); assay: Trypanocidal assay, bloodstream trypomastigotes, 5% of blood at 4 °C; type: cell-based; conditions: first SI column, matches LC50/24 h divided by IC50/24 h at 5% of blood
Experimental: 5% of blood at 4 °C: For all the experiments, stock solutions of the compounds were prepared in dimethyl sulfoxide, with the final concentration of the solvent never exceeding 0.5%, concentration known to exert no toxicity to the parasite or host cells. Bloodstream trypomastigotes of Y strain were obtained from infected Swiss Webster mice at the peak of parasitemia by differential centrifugation process. The parasites (5 × 10^6 parasites per mL) plus 5% of blood were incubated at 4 °C for 24 h in 5% CO2 atmosphere in absence or presence of the compounds. […] At least three independent experiments were performed, and the mean and standard deviation were calculated. The standard drug Bz was used as control.

[2] = tested on: trypomastigote forms of Trypanosoma cruzi (Y strain); assay: Trypanocidal assay, bloodstream trypomastigotes, 0% of blood at 37 °C; type: cell-based; conditions: second SI column, matches LC50/24 h divided by IC50/24 h at 0% of blood
Experimental: 0% of blood at 37 °C: The experiments were performed with the Y strain of T. cruzi.^11 Stock solutions of the compounds were prepared in dimethylsulfoxide (DMSO), with the final concentration of the latter in the experiments never exceeding 0.1%. […] Bloodstream trypomastigotes were obtained from infected Albino Swiss mice at the peak of parasitemia by differential centrifugation. The parasites were resuspended to a concentration of 10 × 10^6 cells/mL in DMES medium. This suspension (100 µL) was added to the same volume of each of the compounds, which had been previously prepared at twice the desired final concentrations. The incubation was performed in 96-well microplates (Nunc Inc., Rochester, USA) at 37 °C for 24 h. Benznidazole (Lafepe, Brazil), the standard drug for treatment of chagasic patients, was used as control.

Structure (SMILES) | SI [1] | SI [2]
Cc1ccc(C2=CC(=O)c3ccccc3C2=O)cc1 [3a] | 0.68 | –
Cc1cccc(C2=CC(=O)c3ccccc3C2=O)c1 [3b] | 0.37 | –
O=C1C=C(c2ccccc2)C(=O)c2ccccc21 [3d] | 0.37 | 4.45
COc1ccc(C2=CC(=O)c3ccccc3C2=O)cc1 [3e] | 0.71 | –
COc1cccc(C2=CC(=O)c3ccccc3C2=O)c1 [3f] | 0.27 | 2.15
O=C1C=C(c2ccc(C(F)(F)F)cc2)C(=O)c2ccccc21 [3g] | 0.22 | –
COC(=O)c1ccc(C2=CC(=O)c3ccccc3C2=O)cc1 [3h] | 0.67 | –
Cc1cc([N+](=O)[O-])ccc1C1=CC(=O)c2ccccc2C1=O [3i] | 0.17 | –
Cc1ccc(C2=CC(=O)c3c(O)cccc3C2=O)cc1 [3l] | 0.33 | 15.48
O=C1C=C(c2ccccc2)C(=O)c2c(O)cccc21 [3n] | 0.47 | 9.27
